From PMC3524506

What was measured:
[1] = target: T1, OmpR-His6 (non-phosphorylated) (UniProt P74982); test: EMSA; conditions: 0.1-0.4 ug, minimum binding amount about 3-fold higher than OmpR-P, 40 mM Tris-HCl pH 8.0, 100 mM KCl, 10 mM MgCl2, 5% glycerol, room temperature 30 min, recombinant protein, residues 1-239, protein details: N-terminal His6, probe letters rebuilt from the primers and the genome
T1 sequence (looked up): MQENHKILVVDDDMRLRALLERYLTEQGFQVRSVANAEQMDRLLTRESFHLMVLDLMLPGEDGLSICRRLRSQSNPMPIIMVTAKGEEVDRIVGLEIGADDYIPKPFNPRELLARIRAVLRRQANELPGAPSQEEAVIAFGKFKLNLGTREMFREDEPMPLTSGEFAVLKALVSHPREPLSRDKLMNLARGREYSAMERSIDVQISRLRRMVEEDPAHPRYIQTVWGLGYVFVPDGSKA

[2] = test system: RovA-His6 (Yersinia enterocolitica O9 Ye9); test: EMSA; conditions: 0.125-1.0 ug RovA, stepwise shift, 40 mM Tris-HCl pH 8.0, 100 mM KCl, 10 mM MgCl2, 5% glycerol, room temperature 30 min, recombinant protein, residues 1-143, protein details: His6 (text states both N-terminal and C-terminal), probe letters rebuilt from the primers and the genome

TTTTGCTGTGAGAACCCATAAGTAAATATTCCAAATATTAAACCGATCGATAATATTAGCCTGCTAATGATTTTAGTCACAGTTAGCGTATTAAAAAATGAATACATTAGTGTACCCCTTAGGTATAAATTAACGCGGTAATATTTACTTAAGCAACAGAAATGAAAACAGCGACAAGAAATAACTTCTTCTTCTCTCTCGCAAACACTAACAATACAATATAATAGCAGAACTTACAAAAATAAAATTAAAAAATTAAAAATAACAGCAATAACAAATGAAATGCAAAAAAAATTCATCATGGTAATATTAGCTTGCTAATTTAATTGTCAGGTTATATTTAGCCTGAATATATATGGTGATATGTTATTATTATCAAAATAGCTTACATTCGTCTCATAAAATAGACTCTCTGCATTTTTCACGATGCATTAATCTAATGCGGCTAAGCAACCGCTGGCTTAGTTTAAAGGAGGGTATATGAAAAAACAGAGTGTACTTTTGAGTTTGATTTTTTGCAGTGTGATGGCGATGTCAT (double strand) [inv promoter fragment 553 bp]
binding result [1]: binds
binding result [2]: binds

For some assays here: The exact form of at least one protein or probe is not confirmed. For some assays here: Protein sequences can lack the tags named with them.
